Data source: PubChem BioAssay AID624099 (ICCB-Longwood, 2012)
In all, the deposit lists about 21,000 reagents; shown is a part drawn at random. Of all reagents, 497 (2.4%) were called active. 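Higher z means weaker E2 silencing; only reporter increases were scored, and knock-downs that hurt cell survival may mask genuine repressor factors.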 The numbers tell different reagents against one gene apart. No sequences are given here.

- Purpose: 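Knock-downs relieving repression by E2 of an HPV18 LCR luciferase reporter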 (primary screen)
- Cell system: human C33A cervical carcinoma cells (HPV-negative) stably expressing BPV1 E2 and an HPV18 LCR luciferase reporter
- Reagent: siRNA pool against human genes, 40 nM
- Timing: 72 h
- Measured: 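HPV18 LCR reporter light per well, converted to plate-wise z-scores that exclude control wells, and averaged over triplicate plates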
- Direction: mean z-score and z-score: higher = stronger reporter signal, weaker E2 silencing
- Hit rule: 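Mean z ≥ 2 together with z ≥ 2 in two or more of the three replicates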

| Target gene | reagent no. | mean z-score | z-score, replicate A | z-score, replicate B | z-score, replicate C | activity call |
| --- | --- | --- | --- | --- | --- | --- |
| F13A1 | 1 | 1.6 | 1.23 | 1.79 | 1.78 | inactive |
| SLITRK1 | 1 | 0.91 | 1.07 | 0.79 | 0.87 | inactive |
| SLC6A13 | 1 | 0.96 | 0.89 | 0.87 | 1.12 | inactive |
| CASP10 | 1 | 0.29 | 0.14 | 0.58 | 0.15 | inactive |
| PLEKHG7 | 1 | 1.13 | 1.02 | 0.99 | 1.37 | inactive |
| PLEKHG7 | 2 | -0.51 | -0.24 | -0.49 | -0.8 | inactive |
| MGAM2 | 1 | 1.85 | 1.95 | 1.69 | 1.9 | inactive |
| TMEM106C | 1 | 0.67 | 1.01 | 0.51 | 0.48 | inactive |
| SERPINB1 | 1 | 2.87 | 2.91 | 2.57 | 3.14 | active |
| RIIAD1 | 1 | 0.34 | 0.33 | 0.28 | 0.39 | inactive |

Individual results from above:
SLITRK1, mean z-score → 0.91
Result for SERPINB1 in “z-score, replicate C”: 3.14
Value of SLC6A13 under “activity call”: inactive

The listing continues:
| Target gene | reagent no. | mean z-score | z-score, replicate A | z-score, replicate B | z-score, replicate C | activity call |
| --- | --- | --- | --- | --- | --- | --- |
| RADIL | 1 | 0.21 | 0.14 | 0.51 | -0.01 | inactive |
| ATOH8 | 1 | -1.94 | -1.88 | -2.05 | -1.88 | inactive |
| GPR52 | 1 | -0.66 | -0.44 | -0.73 | -0.82 | inactive |
| FOXB1 | 1 | 2.89 | 3.13 | 2.66 | 2.89 | active |
| CD300A | 1 | -1.29 | -1.48 | -1.19 | -1.21 | inactive |
| ATG16L2 | 1 | 0.49 | 0.04 | 0.32 | 1.12 | inactive |
| IGFBP3 | 1 | 0.6 | 0.67 | 0.46 | 0.69 | inactive |
| JCAD | 1 | -0.45 | -0.3 | -0.87 | -0.19 | inactive |
| LOC390009 (retired record) | 1 | -1.61 | -1.79 | -1.75 | -1.3 | inactive |
| AMT | 1 | -1.23 | -0.95 | -1.51 | -1.22 | inactive |
| RAB41 | 1 | -0.31 | -0.55 | 0.17 | -0.56 | inactive |
| ZNF32 | 1 | 0.79 | 1.15 | 0.72 | 0.49 | inactive |
| CASTOR2 | 1 | -0.87 | -0.65 | -0.68 | -1.29 | inactive |
